Source: patent US6509033B1, “Immunomodulatory peptides” (President and Fellows of Harvard College, priority 1992, dated 2003)

Biological target: T1, HLA-DR1 (Homo sapiens, UniProt P01903+P01911, A100R/D57E/F55L/F60I/F76Y/I96L/L162R/M171V/P40L/Q125E/R42F/V115G/Y59C)
T1 construct: made in house; host or cells: Sf9 insect cells
Assay: Competition of synthetic peptides against 125I-labeled HA 307-319 for binding to empty HLA-DR1 (Ki)
Details: read-out: Ki vs HA 307-319; concentration inhibiting 50% of 125I-labeled HA 307-319 binding; 10 nM labeled peptide, 10 nM empty HLA-DR1 from Sf9 insect cells, pH 7.2, 37° C., 85 hours

For `CC[C@H](C)[C@H](NC(=O)[C@H](CCC(N)=O)NC(=O)[C@H](CC(N)=O)NC(=O)[C@H](CC(C)C)NC(=O)[C@@H](NC(=O)[C@H](Cc1c[nH]cn1)NC(=O)[C@H](CCCCN)NC(=O)[C@@H](N)Cc1ccc(O)cc1)[C@@H](C)O)C(=O)N[C@@H](CC(=O)O)C(=O)N[C@@H](CO)C(=O)N[C@H](C(=O)N[C@@H](CCCCN)C(=O)N[C@H](C(=O)N[C@@H](Cc1c[nH]c2ccccc12)C(=O)N1CCC[C@H]1C(=O)N[C@@H](CCCNC(=N)N)C(=O)N[C@@H](CCCNC(=N)N)C(=O)O)C(C)C)C(C)C` [Bovine Fetuin 56-72], the Ki was 0.066 ± 0.018 µM.
